Test results: paper PMC7096397, “Improving the drug-likeness of inspiring natural products - evaluation of the antiparasitic activity against Trypanosoma cruzi through semi-synthetic and simplified analogues of licarin A” (Scientific Reports, 2020)

The compounds below were run on T. cruzi (Y strain) trypomastigotes (assay: Anti-trypomastigote assay (resazurin viability)). Settings: CC50 against NCTC cells/IC50 against trypomastigotes.
Format: cell-based, Trypanosoma cruzi
Protocol: (§1) The cells and parasites were kept at 37 °C in a humidified atmosphere containing 5% CO2.
Benznidazole was used as the standard drug. The optical density was determined in FilterMax F5 (Molecular Devices) at 570 nm[38].
(§2) IC50 and CC50 values were calculated using a sigmoid dose-response curves in Graph–Pad Prism 5.0 software (GraphPad Software - San Diego, CA, USA). For the mechanism of action studies one-way ANOVA (Turkey’s Multiple Comparison test) was used for significance (p < 0.05). The assays were repeated at least twice and the samples were tested in duplicate.
In the case of `C/C=C/c1cc(OC)c2c(c1)[C@H](C)[C@@H](c1ccc(OC)c(OC)c1)O2` [1a, (2S,3 S)-2-(3,4-dimethoxyphenyl)-7-methoxy-3-methyl-5-[(E)-prop-1-enyl]-2,3-dihydrobenzo-furan], the SI trypo is reported as over 7.1.
Work on `C/C=C/c1cc(OC)c2c(c1)[C@H](C)[C@@H](c1ccc(OC(C)=O)c(OC)c1)O2` [1b, [2-methoxy-4-[(2S,3 S)-7-methoxy-3-methyl-5-[(E)-prop-1-enyl]-2,3-dihydrobenzofuran-2-yl]phenyl] acetate] yielded an SI trypo of 3.7.
`C=CCc1cc([C@H]2Oc3c(OC)cc(/C=C/C)cc3[C@@H]2C)cc(OC)c1O` [1d, 2-allyl-6-methoxy-4-[(2S,3 S)-7-methoxy-3-methyl-5-[(E)-prop-1-enyl]-2,3-dihydrobenzofuran-2-yl]phenol] gave an SI trypo of 9.0.
Compound `C/C=C/c1cc(OC)c2c(c1)[C@H](C)[C@@H](c1cc(OC)c3oc(C)cc3c1)O2` [1e, 7-methoxy-5-[(2 S,3 S)-7-methoxy-3-methyl-5-[(E)-prop-1-enyl]-2,3-dihydrobenzofuran-2-yl]-2-methyl-benzofuran] has an SI trypo of over 19.0.
Work on `COc1cc(CO)ccc1OC(C)=O` [3b, [4-(hydroxymethyl)-2-methoxy-phenyl] acetate] yielded an SI trypo of 9.0.
`C/C=C/c1ccc(OC(C)=O)c(OC)c1` [4b, [2-methoxy-4-[(E)-prop-1-enyl]phenyl] acetate] was tested, and the SI trypo was over 3.7.
In the case of `C=CCc1cc(/C=C/C)cc(OC)c1O` [4d, 2-allyl-6-methoxy-4-[(E)-prop-1-enyl]phenol], the SI trypo is reported as over 9.5.
Work on `O=C(Cn1ccnc1[N+](=O)[O-])NCc1ccccc1` [Bnz, benznidazole, reference compound] yielded an SI trypo of over 36.4.
Work on `C/C=C/c1cc(OC)c2c(c1)[C@H](C)[C@@H](c1ccc(O)c(OC)c1)O2` [compound 1, Licarin A] yielded an SI trypo of over 3.7.

Each compound was assayed on T. cruzi intracellular amastigotes (assay: Anti-amastigote assay in infected peritoneal macrophages (infection index)). Settings: CC50 against NCTC cells/IC50 against amastigotes.
Format: cell-based, Trypanosoma cruzi
Protocol: as §1
The cells were plated on a 16-well chamber slide – NUNC (Thermo Fisher Scientific) at 1 × 10^5 cells/well and incubated for 24 h at 37 °C in a 5% CO2 humidified incubator. […] Tested compounds were subsequently incubated with infected macrophages for 48 h at 37 °C (5% CO2 humidified incubator) in different nontoxic concentrations. Benznidazole was used as standard drug. At the end of the assay, slides were fixed with MeOH and stained with Giemsa, counted under a light microscope (EVOS M5000, Thermo, USA) and IC50 values were determined by the infection index.
as §2
`COc1cc(C=O)ccc1OC(C)=O` [2b, (4-formyl-2-methoxy-phenyl) acetate] gave an SI ama of over 35.6.
Compound `C=CCc1cc(/C=C/C)cc(OC)c1O` [4d, 2-allyl-6-methoxy-4-[(E)-prop-1-enyl]phenol] has an SI ama of over 19.1.
`O=C(Cn1ccnc1[N+](=O)[O-])NCc1ccccc1` [Bnz, benznidazole, reference compound] gave an SI ama of over 10.7.
